Patent US20250115620A1, “BRIDGED TRICYCLIC CARBAMOYLPYRIDONE COMPOUNDS AND USES THEREOF” (Gilead Sciences, Inc., priority 2022, published 2025)

Test system: pLAI reporter virus
Assay type: cell-based, HIV
Conditions: EC50 (50% HS)/EC50 (CCM)

SMILES	RLUC 50% HS Shift [×]
CCC1=NO[C@@]2(CC[C@H](C)N3C[C@H]2n2cc(C(=O)NCc4c(F)cc(F)cc4F)c(=O)c(O)c2C3=O)O1 [Example 93, (3′S,5R,7′R)-3-ethyl-12′-hydroxy-3′-methyl-1′,11′-dioxo-N-(2,4,6-trifluorobenzyl)-1′,4′,5′,11′-tetrahydro-3′H,7′H-spiro[[1,4,2]dioxazole-5,6′-[2,7]methanopyrido[1,2-a][1,4]diazonine]-10′-carboxamide]	3109
CCC1=NO[C@@]2(CC[C@H](C)N3C[C@H]2n2cc(C(=O)NCc4ccc(F)cc4F)c(=O)c(O)c2C3=O)O1 [Example 94, (3′S,5R,7′R)—N-(2,4-difluorobenzyl)-3-ethyl-12′-hydroxy-3′-methyl-1′,11′-dioxo-1′,4′,5′,11′-tetrahydro-3′H,7′H-spiro[[1,4,2]dioxazole-5,6′-[2,7]methanopyrido[1,2-a][1,4]diazonine]-10′-carboxamide]	3422
COC1=NO[C@@]2(CCCN3C[C@H]2n2cc(C(=O)NCc4c(F)cc(F)cc4F)c(=O)c(O)c2C3=O)C1 [Example 96, (5S,7′R)-12′-hydroxy-3-methoxy-1′,11′-dioxo-N-(2,4,6-trifluorobenzyl)-1′,4′,5′,11′-tetrahydro-3′H,4H,7′H-spiro[isoxazole-5,6′-[2,7]methanopyrido[1,2-a][1,4]diazonine]-10′-carboxamide]	6
COC1=NO[C@@]2(CC[C@@H](C)N3C[C@H]2n2cc(C(=O)NCc4c(F)cc(F)cc4F)c(=O)c(O)c2C3=O)C1 [Example 97, (3′R,5S,7′R)-12′-hydroxy-3-methoxy-3′-methyl-1′,11′-dioxo-N-(2,4,6-trifluorobenzyl)-1′,4′,5′,11′-tetrahydro-3′H,4H,7′H-spiro[isoxazole-5,6′-[2,7]methanopyrido[1,2-a][1,4]diazonine]-10′-carboxamide]	4
CC1=NO[C@@]2(CC[C@@H](C)N3C[C@H]2n2cc(C(=O)NCc4c(F)cc(F)cc4F)c(=O)c(O)c2C3=O)C1 [Example 98, (3′R,5S,7′R)-12′-hydroxy-3,3′-dimethyl-1′,11′-dioxo-N-(2,4,6-trifluorobenzyl)-1′,4′,5′,11′-tetrahydro-3′H,4H,7′H-spiro[isoxazole-5,6′-[2,7]methanopyrido[1,2-a][1,4]diazonine]-10′-carboxamide]	15
COC1=NO[C@@]2(CC[C@H](CF)N3C[C@H]2n2cc(C(=O)NCc4c(F)cc(F)cc4F)c(=O)c(O)c2C3=O)C1 [Example 99, (3′R,5S,7′R)-3′-(fluoromethyl)-12′-hydroxy-3-methoxy-1′,11′-dioxo-N-(2,4,6-trifluorobenzyl)-1′,4′,5′,11′-tetrahydro-3′H,4H,7′H-spiro[isoxazole-5,6′-[2,7]methanopyrido[1,2-a][1,4]diazonine]-10′-carboxamide]	99
COC1=NO[C@@]2(CC[C@H](CF)N3C[C@H]2n2cc(C(=O)NCc4ccc(F)cc4F)c(=O)c(O)c2C3=O)C1 [Example 100, (3′R,5S,7′R)—N-(2,4-difluorobenzyl)-3′-(fluoromethyl)-12′-hydroxy-3-methoxy-1′,11′-dioxo-1′,4′,5′,11′-tetrahydro-3′H,4H,7′H-spiro[isoxazole-5,6′-[2,7]methanopyrido[1,2-a][1,4]diazonine]-10′-carboxamide]	45
C[C@H]1CC[C@]2(CC(=O)NO2)[C@H]2CN1C(=O)c1c(O)c(=O)c(C(=O)NCc3c(F)cc(F)cc3F)cn12 [Example 101, (3′S,5S,7′R)-12′-hydroxy-3′-methyl-1′,3,11′-trioxo-N-(2,4,6-trifluorobenzyl)-1′,4′,5′,11′-tetrahydro-3′H,7′H-spiro[isoxazolidine-5,6′-[2,7]methanopyrido[1,2-a][1,4]diazonine]-10′-carboxamide]	12
C[C@H]1CC[C@@]2(CC(=O)N(Cc3ccc(F)cc3)O2)[C@H]2CN1C(=O)c1c(O)c(=O)c(C(=O)NCc3c(F)cc(F)cc3F)cn12 [Example 102, (3′S,5R,7′R)-2-(4-fluorobenzyl)-12′-hydroxy-3′-methyl-1′,3,11′-trioxo-N-(2,4,6-trifluorobenzyl)-1′,4′,5′,11′-tetrahydro-3′H,7′H-spiro[isoxazolidine-5,6′-[2,7]methanopyrido[1,2-a][1,4]diazonine]-10′-carboxamide]	15
C[C@H]1CC[C@]2(CC(=O)N(Cc3ccc4c(cnn4C)c3)O2)[C@H]2CN1C(=O)c1c(O)c(=O)c(C(=O)NCc3c(F)cc(F)cc3F)cn12 [Example 103, (3′S,5S,7′R)-12′-hydroxy-3′-methyl-2-((1-methyl-1H-indazol-5-yl)methyl)-1′,3,11′-trioxo-N-(2,4,6-trifluorobenzyl)-1′,4′,5′,11′-tetrahydro-3′H,7′H-spiro[isoxazolidine-5,6′-[2,7]methanopyrido[1,2-a][1,4]diazonine]-10′-carboxamide]	2
C[C@H]1CC[C@]2(CC(=O)N(Cc3cnn(C)n3)O2)[C@H]2CN1C(=O)c1c(O)c(=O)c(C(=O)NCc3c(F)cc(F)cc3F)cn12 [Example 104, (3′S,5S,7′R)-12′-hydroxy-3′-methyl-2-((2-methyl-2H-1,2,3-triazol-4-yl)methyl)-1′,3,11′-trioxo-N-(2,4,6-trifluorobenzyl)-1′,4′,5′,11′-tetrahydro-3′H,7′H-spiro[isoxazolidine-5,6′-[2,7]methanopyrido[1,2-a][1,4]diazonine]-10′-carboxamide]	0
C[C@H]1CC[C@]2(CC(=O)N(CCc3ccccc3)O2)[C@H]2CN1C(=O)c1c(O)c(=O)c(C(=O)NCc3c(F)cc(F)cc3F)cn12 [Example 105, (3′S,5S,7′R)-12′-hydroxy-3′-methyl-1′,3,11′-trioxo-2-phenethyl-N-(2,4,6-trifluorobenzyl)-1′,4′,5′,11′-tetrahydro-3′H,7′H-spiro[isoxazolidine-5,6′-[2,7]methanopyrido[1,2-a][1,4]diazonine]-10′-carboxamide]	52
C[C@H]1CC[C@]2(CC(=O)N(Cc3cccc4ccccc34)O2)[C@H]2CN1C(=O)c1c(O)c(=O)c(C(=O)NCc3c(F)cc(F)cc3F)cn12 [Example 106, (3′S,5S,7′R)-12′-hydroxy-3′-methyl-2-(naphthalen-1-ylmethyl)-1′,3,11′-trioxo-N-(2,4,6-trifluorobenzyl)-1′,4′,5′,11′-tetrahydro-3′H,7′H-spiro[isoxazolidine-5,6′-[2,7]methanopyrido[1,2-a][1,4]diazonine]-10′-carboxamide]	321
C[C@H]1CC[C@]2(CC(=O)N(Cc3ccc4ccccc4c3)O2)[C@H]2CN1C(=O)c1c(O)c(=O)c(C(=O)NCc3c(F)cc(F)cc3F)cn12 [Example 107, (3′S,5S,7′R)-12′-hydroxy-3′-methyl-2-(naphthalen-2-ylmethyl)-1′,3,11′-trioxo-N-(2,4,6-trifluorobenzyl)-1′,4′,5′,11′-tetrahydro-3′H,7′H-spiro[isoxazolidine-5,6′-[2,7]methanopyrido[1,2-a][1,4]diazonine]-10′-carboxamide]	34
C[C@H]1CC[C@]2(CC(=O)N(C)O2)[C@H]2CN1C(=O)c1c(O)c(=O)c(C(=O)NCc3c(F)cc(F)cc3F)cn12 [Example 108, (3′S,5S,7′R)-12′-hydroxy-2,3′-dimethyl-1′,3,11′-trioxo-N-(2,4,6-trifluorobenzyl)-1′,4′,5′,11′-tetrahydro-3′H,7′H-spiro[isoxazolidine-5,6′-[2,7]methanopyrido[1,2-a][1,4]diazonine]-10′-carboxamide]	16
C[C@H]1CC[C@]2(CC(=O)N(Cc3ccc(Cl)cc3)O2)[C@H]2CN1C(=O)c1c(O)c(=O)c(C(=O)NCc3c(F)cc(F)cc3F)cn12 [Example 109, (3′S,5S,7′R)-2-(4-chlorobenzyl)-12′-hydroxy-3′-methyl-1′,3,11′-trioxo-N-(2,4,6-trifluorobenzyl)-1′,4′,5′,11′-tetrahydro-3′H,7′H-spiro[isoxazolidine-5,6′-[2,7]methanopyrido[1,2-a][1,4]diazonine]-10′-carboxamide]	13
C[C@H]1CC[C@]2(CC(=O)N(Cc3ccc(F)cc3F)O2)[C@H]2CN1C(=O)c1c(O)c(=O)c(C(=O)NCc3c(F)cc(F)cc3F)cn12 [Example 110, (3′S,5S,7′R)-2-(2,4-difluorobenzyl)-12′-hydroxy-3′-methyl-1′,3,11′-trioxo-N-(2,4,6-trifluorobenzyl)-1′,4′,5′,11′-tetrahydro-3′H,7′H-spiro[isoxazolidine-5,6′-[2,7]methanopyrido[1,2-a][1,4]diazonine]-10′-carboxamide]	10
C[C@H]1CC[C@]2(CC(=O)N(Cc3cccc(C(F)(F)F)c3)O2)[C@H]2CN1C(=O)c1c(O)c(=O)c(C(=O)NCc3c(F)cc(F)cc3F)cn12 [Example 111, (3′S,5S,7′R)-12′-hydroxy-3′-methyl-1′,3,11′-trioxo-N-(2,4,6-trifluorobenzyl)-2-(3-(trifluoromethyl)benzyl)-1′,4′,5′,11′-tetrahydro-3′H,7′H-spiro[isoxazolidine-5,6′-[2,7]methanopyrido[1,2-a][1,4]diazonine]-10′-carboxamide]	5
C[C@H]1CC[C@]2(CC(=O)N(Cc3ccc4ncsc4c3)O2)[C@H]2CN1C(=O)c1c(O)c(=O)c(C(=O)NCc3c(F)cc(F)cc3F)cn12 [Example 112, (3′S,5S,7′R)-2-(benzo[d]thiazol-6-ylmethyl)-12′-hydroxy-3′-methyl-1′,3,11′-trioxo-N-(2,4,6-trifluorobenzyl)-1′,4′,5′,11′-tetrahydro-3′H,7′H-spiro[isoxazolidine-5,6′-[2,7]methanopyrido[1,2-a][1,4]diazonine]-10′-carboxamide]	2
C[C@H]1CC[C@]2(CC(=O)N(Cc3ccc4scnc4c3)O2)[C@H]2CN1C(=O)c1c(O)c(=O)c(C(=O)NCc3c(F)cc(F)cc3F)cn12 [Example 113, (3′S,5S,7′R)-2-(benzo[d]thiazol-5-ylmethyl)-12′-hydroxy-3′-methyl-1′,3,11′-trioxo-N-(2,4,6-trifluorobenzyl)-1′,4′,5′,11′-tetrahydro-3′H,7′H-spiro[isoxazolidine-5,6′-[2,7]methanopyrido[1,2-a][1,4]diazonine]-10′-carboxamide]	7
